Literature values in PMC11394807.

Target: Spike protein (SARS-CoV-2) (UniProt P0DTC2)

In the case of CD4 (from UniProt P01730), the Kd is listed as 27 nM.
